Measured values published in US20220002288A1, “MONOBACTAM COMPOUNDS AND USE THEREFOR” (priority 2018, published 2022).

Test system: clinically isolated Acinetobacter baumannii
Assay: MIC experiment of clinically sourced bacterial strains
Assay type: cell-based
Settings: strains of Table 4
Procedure: Compounds: the compound of Example 1 and Compound C of Comparative Example 3. Both test compounds were dissolved and diluted with DMSO, and the final concentrations were prepared as 64, 32, 16, 8, 4, 2, 1, 0.5, 0.25, 0.125, 0.0625 μg/mL in the experiment.
Bacterial strains: clinically isolated Acinetobacter baumannii, Pseudomonas aeruginosa, Klebsiella pneumoniae and Escherichia coli, all provided by HD Biosciences (Shanghai) Co., Ltd.
Medium: Trypticase soy agar (TSA) (BD BBL 211043), and Cation-adjusted Mueller Hinton broth (CAMHB) (BD BBL212322).
The experimental method was the same as that in the above Experimental Example 1.

Compound | number of strains with MIC≤0.063 μg/mL (the lowest detection concentration) [strains]
CC1(C)[C@H](NC(=O)/C(=N\O[C@@H](COc2ccc(-c3cn(CCCN)[n+](CC4CNC4)c3)cc2)C(=O)O)c2csc(N)n2)C(=O)N1OS(=O)(=O)[O-] [Compound C, reference compound] | 2
CC1(C)[C@H](NC(=O)/C(=N\O[C@@H](COc2ccc(C(=O)Nc3cn(CCCN)[n+](CC4CNC4)c3)cc2)C(=O)O)c2csc(N)n2)C(=O)N1OS(=O)(=O)[O-] [Example 1, (S)-3-((Z)-2-(((S)-2-(4-((1-(3-aminopropyl)-2-(azetidin-3-ylmethyl)-1H-pyrazol-2-ium-4-yl)carbamoyl)phenoxy)-1-carboxyethoxy)imino)-2-(2-aminothiazol-4-yl)acetylamino)-2,2-dimethyl-4-oxoazetidin-1-yl Sulfate] | 11

Counter-ions that a name gives are not always drawn.
